Assay results: US9029526B2, “Nucleic acid molecules, polypeptides, antibodies and compositions for treating and detecting influenza virus infection” (dated 2015)

Tested on: A/Texas/1/77 (H3N2)
Test: Inhibition of mouse infection, lung virus titer, A/Texas/1/77
Settings: intra-nasal

Structure (SMILES): CCOC(=O)C1=C[C@@H](OC(CC)CC)[C@H](NC(C)=O)[C@@H](N)C1
- Protection (%) (administered once with the virus): 76.03%
- Δlog EID50 (administered once, together with the virus, Oseltamivir 20 μg/mouse): 0.62 log EID50
- Fold reduction (virus burden, administered once with the virus): 4.17 fold
